PubChem BioAssay AID1259414 – Drosophila RNAi Screening Center, 2018
The deposit covers about 24,000 reagents; below is a random part of those that have a named target and a result. Of all reagents, about 1,210 (5%) are marked active. 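Inactive calls also include excluded dsRNAs with several or no targets, genes unexpressed in JW18, and well A1, regardless of score.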 A plus sign joins genes that one reagent is predicted to hit. Reagent sequences are not shown.

Purpose: 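Host factors increasing or decreasing Wolbachia levels in cultured fly cells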 (primary screen)
Cells: Drosophila JW18 cells infected with Wolbachia
Reagents: long dsRNA against Drosophila genes, 0.25 µg dsRNA per well of a 384-well plate
Timing: 5 days
Treatment: cells persistently infected with Wolbachia before knock-down; no added drug
Measurement: 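Imaged fluorescence in situ signal for Wolbachia 23S rRNA per DAPI-counted host cell, given as a robust z-score within each plate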
Reading the numbers: Wolbachia per cell robust z: higher = more Wolbachia per host cell than the plate typical
Hit rule: 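Active if absolute robust z reaches 1.5 in two or more of three replicates, leaving out multi- or no-target dsRNAs, genes unexpressed in JW18 and A1 wells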

Against CG42327 [DRSC14936], the entry reads Wolbachia per cell robust z, rep 1 = -1.5; Wolbachia per cell robust z, rep 2 = 0.612; Wolbachia per cell robust z, rep 3 = 0.747; inactive.
For CG42327 [DRSC14937], the values are Wolbachia per cell robust z, rep 1 = -1.99; Wolbachia per cell robust z, rep 2 = 0.135; Wolbachia per cell robust z, rep 3 = -0.354; inactive.
CG42327 [DRSC23337] showed Wolbachia per cell robust z, rep 1 = 0.595; Wolbachia per cell robust z, rep 2 = 0.465; Wolbachia per cell robust z, rep 3 = 0.79; inactive.
Silencing of CG42327 [DRSC28159] came out at: Wolbachia per cell robust z, rep 1 = -0.698; Wolbachia per cell robust z, rep 2 = 1.04; Wolbachia per cell robust z, rep 3 = -0.309; inactive.
Knock-down of CG42327 [DRSC28248] resulted in: Wolbachia per cell robust z, rep 1 = -0.886; Wolbachia per cell robust z, rep 2 = 0.257; Wolbachia per cell robust z, rep 3 = -0.315; inactive.
For CG31221 [DRSC14335] the deposit lists Wolbachia per cell robust z, rep 1 = -2.32; Wolbachia per cell robust z, rep 2 = -0.576; Wolbachia per cell robust z, rep 3 = -1.41; inactive.
Knock-down of CG31221 [DRSC16217] came out at: Wolbachia per cell robust z, rep 1 = 0.0194; Wolbachia per cell robust z, rep 2 = -3.22; Wolbachia per cell robust z, rep 3 = 1.38; inactive.
Depletion of CG31221 [DRSC23748] gave: Wolbachia per cell robust z, rep 1 = 0.0143; Wolbachia per cell robust z, rep 2 = -0.346; Wolbachia per cell robust z, rep 3 = 0.0919; inactive.
After knock-down of Uch-L5 (Ubiquitin carboxy-terminal hydrolase L5) [DRSC11314], the record shows Wolbachia per cell robust z, rep 1 = 0.179; Wolbachia per cell robust z, rep 2 = -0.438; Wolbachia per cell robust z, rep 3 = 0.477; inactive.
After knock-down of Uch-L5 (Ubiquitin carboxy-terminal hydrolase L5) [DRSC27736], the screen gave Wolbachia per cell robust z, rep 1 = 0.168; Wolbachia per cell robust z, rep 2 = 1.13; Wolbachia per cell robust z, rep 3 = 0.185; inactive.
Against CG8508 [DRSC16436] the deposit lists Wolbachia per cell robust z, rep 1 = 0.684; Wolbachia per cell robust z, rep 2 = -1.65; Wolbachia per cell robust z, rep 3 = -0.435; inactive.
Map60 (Microtubule-associated protein 60) [DRSC07464] showed Wolbachia per cell robust z, rep 1 = 0.212; Wolbachia per cell robust z, rep 2 = -0.709; Wolbachia per cell robust z, rep 3 = -1.74; inactive.
Silencing of CG13850 [DRSC14700] resulted in: Wolbachia per cell robust z, rep 1 = 0.436; Wolbachia per cell robust z, rep 2 = 1.16; Wolbachia per cell robust z, rep 3 = 0.328; inactive.
CG13850 [DRSC41447] showed Wolbachia per cell robust z, rep 1 = 0.036; Wolbachia per cell robust z, rep 2 = -2.44; Wolbachia per cell robust z, rep 3 = -0.355; inactive.
After knock-down of CG7848 [DRSC07050], the screen gave Wolbachia per cell robust z, rep 1 = -0.948; Wolbachia per cell robust z, rep 2 = 1.03; Wolbachia per cell robust z, rep 3 = 0.617; inactive.
Depletion of mus201 + Chrac-14 [DRSC03568] resulted in: Wolbachia per cell robust z, rep 1 = -1; Wolbachia per cell robust z, rep 2 = -0.566; Wolbachia per cell robust z, rep 3 = 0.422; inactive.
Against ytr (yantar) [DRSC04306], the entry reads Wolbachia per cell robust z, rep 1 = -0.698; Wolbachia per cell robust z, rep 2 = -0.501; Wolbachia per cell robust z, rep 3 = 0.329; inactive.
ytr (yantar) [DRSC22073] showed Wolbachia per cell robust z, rep 1 = 0.0399; Wolbachia per cell robust z, rep 2 = -2.25; Wolbachia per cell robust z, rep 3 = -0.553; inactive.
ytr (yantar) [DRSC25408] showed Wolbachia per cell robust z, rep 1 = 0.198; Wolbachia per cell robust z, rep 2 = 0.504; Wolbachia per cell robust z, rep 3 = -0.551; inactive.
With knock-down of CG14495 [DRSC06466] the results were Wolbachia per cell robust z, rep 1 = 0.741; Wolbachia per cell robust z, rep 2 = 0.843; Wolbachia per cell robust z, rep 3 = 0.665; inactive.
Knock-down of CG5767 [DRSC06953] gave: Wolbachia per cell robust z, rep 1 = 0.46; Wolbachia per cell robust z, rep 2 = 0.97; Wolbachia per cell robust z, rep 3 = 0.487; inactive.
Silencing of CG5767 [DRSC29980] gave: Wolbachia per cell robust z, rep 1 = -0.675; Wolbachia per cell robust z, rep 2 = 0.0882; Wolbachia per cell robust z, rep 3 = -0.359; inactive.
Against CG17300 [DRSC10260], the values are Wolbachia per cell robust z, rep 1 = 0.481; Wolbachia per cell robust z, rep 2 = -0.59; Wolbachia per cell robust z, rep 3 = 0.423; inactive.
CG17300 [DRSC28904] scored Wolbachia per cell robust z, rep 1 = 0.333; Wolbachia per cell robust z, rep 2 = 1.11; Wolbachia per cell robust z, rep 3 = 0.313; inactive.

3 neighbouring reagents from above, quoted:
CG42327 [DRSC23337] → Wolbachia per cell robust z, rep 1: 0.595; Wolbachia per cell robust z, rep 2: 0.465; Wolbachia per cell robust z, rep 3: 0.79; Call: inactive
CG42327 [DRSC28159] → Wolbachia per cell robust z, rep 1: -0.698; Wolbachia per cell robust z, rep 2: 1.04; Wolbachia per cell robust z, rep 3: -0.309; Call: inactive
CG42327 [DRSC28248] → Wolbachia per cell robust z, rep 1: -0.886; Wolbachia per cell robust z, rep 2: 0.257; Wolbachia per cell robust z, rep 3: -0.315; Call: inactive
